Record: PubChem BioAssay AID504761 (Drosophila RNAi Screening Center, 2011)

Assay: 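Fly genes whose silencing reduces dengue virus type 2 infection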 (primary screen)
Cell system: D.Mel-2 cells from Drosophila
Reagents: long dsRNA against Drosophila genes
Challenge: infection with dengue virus type 2; dose and infection time not stated
Measured: 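Per well on two replicate plates, imaging gave the percent of cells positive for viral envelope protein, ranked by infection, and a nuclear count of cells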
Direction: infection score: higher = more virus-infected cells; cell count: higher = more cells in the well
Active means: 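Very low infection ranking in both replicate wells (chance probability at most 0.065), then a retest showing infection dropped 1.5-fold or more at p below 0.05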
Calls: active = confirmed: knock-down lowers infection; inactive = not picked or not confirmed
In all, the deposit lists about 22,000 reagents; shown is an unselected part of those with a known target gene and a result. Of all reagents, 116 (0.52%) are marked active. 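Calls depend on retest data that are not deposited; infection was ranked per plate without normalising between plates; the unit of the infection score is not given.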 Raw values are not corrected between plates. Entries without a mark were called inactive. Names joined by + are all predicted targets of the reagent. Not given: the amount of reagent, the time to read-out.

gene	DRSC id	infection score, replicate 1	infection score, replicate 2	cell count, replicate 1	cell count, replicate 2
STUB1 (STIP1 homology and U-box containing protein 1)	DRSC03282	3.68	5.86	6088	6044
dpr6 (defective proboscis extension response 6)	DRSC09005	7.9	1.6	5611	5195
dpr6 (defective proboscis extension response 6)	DRSC10162	10.4	8.59	5860	5925
dpr6 (defective proboscis extension response 6)	DRSC10163	2.97	1.79	6471	6692
CG12857	DRSC06197	11.8	14.1	6297	5899
CG8679	DRSC03109	2.82	0.88	886	799
Rab8	DRSC11261	4.67	9.11	6296	6289
CG5934	DRSC15922	1.35	5.63	6647	3359
CG5934	DRSC27431	35.8	4.57	6212	6584
CG13693	DRSC00362	5.41	6.6	6914	6663
CG13693	DRSC25981	2.26	1.03	6851	6529
CG3927 + nsr	DRSC27267	10.1	7.45	4689	6483
He (Hemese)	DRSC28434		14.2	409	3245
t (tan)	DRSC17815	2.65	3.63	6333	6663
t (tan)	DRSC29460	18.4		5714	387
Cnep1r2 (CTD nuclear envelope phosphatase 1 regulatory subunit 2)	DRSC10950	5.5	8.36	6725	6447
CanB (Calcineurin B)	DRSC18449	5.41	6.51	6061	6141
CanB (Calcineurin B)	DRSC29220	2.83		1414	406
Ctr1A (Copper transporter 1A)	DRSC18336	5.75	6.95	5952	5742
Tmx3 (Thioredoxin-related transmembrane protein 3)	DRSC10471	9.94	5.74	2979	6616
CG5024	DRSC15698	0.17	1.22	6388	6573
CG15865	DRSC19733	3.16	8.61	6776	6402
CG14262	DRSC14757	4.65	2.81	6496	6343
Srrm234 (Serine-arginine repetitive matrix 2/3/4)	DRSC07955	3.26	6	5423	4913
Srrm234 (Serine-arginine repetitive matrix 2/3/4)	DRSC08606	5.06	13.5	5588	5499
CG30371	DRSC06835	1.83	2.5	6188	6630
CG16935	DRSC06638	4.53	30.6	6762	5384
DIP1 (DISCO Interacting Protein 1)	DRSC20818	0.43	5.5	6110	7127
DIP1 (DISCO Interacting Protein 1)	DRSC27354	15.4	11.4	6287	6166
Prm (Paramyosin)	DRSC08941	0.6	0.54	6462	6438
Prm (Paramyosin)	DRSC08942	0.53	0.66	5987	6406
Prm (Paramyosin)	DRSC11255	16.4	7.21	5075	5149
Prm (Paramyosin)	DRSC26929	19.6	14.6	6028	5778
CG5756	DRSC06950	16	7.01	5867	7215
CG5756	DRSC28245	9.53	8.17	6005	4037
CG43861	DRSC02308	7.8	4.24	1667	7177
Cont (Contactin)	DRSC12149	10.1	7.4	5949	6118
foxo (forkhead box, sub-group O)	DRSC13017	1.59	3.16	2519	3194
foxo (forkhead box, sub-group O)	DRSC15463	17.2	17.5	5621	6095
Eig71Eb (Ecdysone-induced gene 71Eb)	DRSC11149	1.01	4.13	5630	5760
ck (crinkled)	DRSC03509	10.1	4.63	5974	5944
Prip	DRSC07044	10.8	21.5	3731	5853
Prip	DRSC26459	3.22	2.98	6529	6541
cyp33 (cyclophilin-33)	DRSC07600	7.98	5.07	5841	1658
loopin-1	DRSC06888	10.9	11.3	6396	5983
loopin-1	DRSC24892	4.72	12.8	5890	3743
PIP82	DRSC18694	6.42	12.1	4952	5593
PIP82	DRSC25335	2.27	5.24	6356	6663
CG9400	DRSC20182	3.39	2.83	5986	6113
CG5770	DRSC06954	18.8	9.81	5832	6321
CG5770	DRSC24281	2.38	4.24	6465	5707
CG30046	DRSC06691	12.5	15.3	3745	5797
CG10317	DRSC14229	2.65	5.51	6264	6350
CG3222	DRSC10355	3.47	4.49	5584	5994
Zwilch	DRSC15376	3.16	4.22	6290	6450
CG13078	DRSC02182	4.22	3.53	6584	1078
MagR (Magnetic receptor)	DRSC20092	31.2	15.2	3967	5879
CG10151	DRSC05974	17.5	14	6096	6387
CG10151	DRSC27429	8.39	7.98	6869	6478
SerRS-m (Seryl-tRNA synthetase, mitochondrial)	DRSC14096	4.72	4.59	5461	5534
mmd (mind-meld)	DRSC19673	2.29	0.81	6255	6583
mmd (mind-meld)	DRSC20161	9	2.73	6235	6861
mmd (mind-meld)	DRSC23042	4.11	3.76	5937	6189
CG31735	DRSC01518	2.27	0.75	5725	5698
CG31735	DRSC30072	2.56	8.16	6412	5830
Sply (Sphingosine-1-phosphate lyase)	DRSC07299	6.25	2.59	1264	6763
Sply (Sphingosine-1-phosphate lyase)	DRSC27378	4.55	10.3	3054	6057
CG14355	DRSC14818	6.78	17.8	6197	6183
Tim9a	DRSC19753	7.74	6.34	5765	3074
CG43367	DRSC08299	3.51	2.64	5987	6087
CG43367	DRSC08301	1.78	1.5	6476	5803
CG43367	DRSC08309	4.57	4.1	5992	5921
CG43367	DRSC24732	3.23	11.2	6260	6170
CG15011	DRSC08464	7.26	3.29	6291	6573

An excerpt taken from the entries so far:
gene	DRSC id	infection score, replicate 1	infection score, replicate 2	cell count, replicate 1	cell count, replicate 2
CG5756	DRSC28245	9.53	8.17	6005	4037
CG43861	DRSC02308	7.8	4.24	1667	7177
Cont (Contactin)	DRSC12149	10.1	7.4	5949	6118
foxo (forkhead box, sub-group O)	DRSC13017	1.59	3.16	2519	3194
foxo (forkhead box, sub-group O)	DRSC15463	17.2	17.5	5621	6095
Eig71Eb (Ecdysone-induced gene 71Eb)	DRSC11149	1.01	4.13	5630	5760
